Pooled drug test results. Numbers come from NIAID ChemDB, via PubChem.

All rows: tests in culture; species: Candida albicans; measure: MIC50

A number after MIC or MFC names an inhibition level or a share of isolates. Lines come from different laboratories, so protocols vary. An empty or dashed field is not shown.

| structure | strain | read by | conditions | result |
|---|---|---|---|---|
| C=CCSS(=O)CC=C | ATCC 10231 | broth dilution |  | 250 µg/mL |
| Cc1nc(NC(=O)c2ccc(F)cc2)sc1C(=O)N/N=C1/S/C(=C/c2ccc(O)cc2)C(=O)N1c1ccccc1 | MTCC 227 |  |  | 50 µg/mL |
| CCCCCOc1ccc(-c2ccc(-c3ccc(C(=O)N[C@H]4C[C@@H](O)[C@@H](O)NC(=O)[C@@H]5[C@@H](O)[C@@H](C)CN5C(=O)[C@H]([C@H](C)O)NC(=O)[C@H]([C@H](O)[C@@H](O)c5ccc(O)cc5)NC(=O)[C@@H]5C[C@@H](O)CN5C(=O)[C@H]([C@H](C)O)NC4=O)cc3)cc2)cc1 | 10 strains (fluconazole- itraconazole-susceptible) |  |  | 0.06 µg/mL |
| C=CCSS(=O)CC=C | Clinical Isolate 3055 | broth dilution |  | 0.39 µg/mL |
| C[C@@H](c1ncncc1F)[C@](O)(Cn1cncn1)c1ccc(F)cc1F | Isolate HR-Micro |  | 24 h | 0.02 µg/mL |
| OC[C@@H]1CO[C@](Cn2ccnc2)(c2ccc(-c3ccccc3)cc2)O1 | 44 strains |  |  | 32 µg/mL |
| C[C@@H](c1nc(-c2ccc(C#N)cc2)cs1)[C@](O)(Cn1cnnc1)c1ccc(F)cc1F | 34 isolates |  |  | 0.008 µg/mL |
| N=C(N)N(CCCCCCCCCN=C(N)N)CCCCCCCN=C(N)N | ATCC 60193 |  |  | 5 µM |
| CCC(C)CC(C)CCCCCCCCC(=O)N[C@H]1C[C@@H](O)[C@H](NCCN)NC(=O)[C@@H]2[C@@H](O)CCN2C(=O)[C@H]([C@H](O)CCN)NC(=O)[C@H]([C@H](O)[C@@H](O)c2ccc(O)cc2)NC(=O)[C@@H]2C[C@@H](O)CN2C(=O)[C@H]([C@@H](C)O)NC1=O | SC5314 | broth dilution / turbidity |  | 0.06 µg/mL |
| O=[N+]([O-])/C(Br)=C\c1ccc(Br)o1 | 138 isolates |  |  | 2 µg/mL |
| C#CCNC(N)=NCCCCCCCN1CCCCCCCCN=C(N)NC1=O | ATCC 60193 |  |  | 2.5 µM |
| COc1cccc(/C=C2/S/C(=N/NC(=O)c3sc(NC(=O)c4ccc(F)cc4)nc3C)N(c3ccccc3)C2=O)c1 | MTCC 227 |  |  | 500 µg/mL |
| CCCCCCCCCCCCCCCC(=O)NC1CC(O)C(O)NC(=O)C2C(O)C(C)CN2C(=O)C(C(O)CC(N)=O)NC(=O)C(C(O)C(O)c2ccc(O)c(OS(=O)(=O)O)c2)NC(=O)C2CC(O)CN2C(=O)C(C(C)O)NC1=O | FP629 |  |  | 0.008 µg/mL |
| C[C@H]1[C@H](O)[C@@H](C)/C=C/C=C/C=C/C=C/C=C/C=C/C=C/[C@H](O[C@@H]2O[C@H](C)[C@@H](O)[C@H](N)[C@@H]2O)C[C@@H]2O[C@](O)(C[C@@H](O)C[C@@H](O)CC[C@H](O)[C@@H](O)C[C@@H](O)CC(=O)O[C@H]1C)C[C@H](O)[C@H]2C(=O)O | 166 isolates |  |  | 0.5 µg/mL |
| CNCCN(C)CCc1ccc(-c2csc(-c3ccc(Cl)cc3)n2)cc1 |  |  |  | 4 µg/mL |
| Cc1nc(NC(=O)c2ccc(F)cc2)sc1C(=O)N/N=C1/S/C(=C/c2ccccc2Cl)C(=O)N1c1ccccc1 | MTCC 227 |  |  | 1000 µg/mL |
| Nc1[nH]c(=O)ncc1F | 166 isolates |  |  | 0.25 µg/mL |
| CCCCCOc1ccc(-c2ccc(-c3ccc(C(=O)N[C@H]4C[C@@H](O)[C@@H](O)NC(=O)[C@@H]5[C@@H](O)[C@@H](C)CN5C(=O)[C@H]([C@H](C)O)NC(=O)[C@H]([C@H](O)[C@@H](O)c5ccc(O)cc5)NC(=O)[C@@H]5C[C@@H](O)CN5C(=O)[C@H]([C@H](C)O)NC4=O)cc3)cc2)cc1 | 42 isolates |  |  | 0.002 µg/mL |
| Cc1ccc(/C=C2/S/C(=N/NC(=O)c3sc(NC(=O)c4ccc(F)cc4)nc3C)N(c3ccccc3)C2=O)cc1 | MTCC 227 |  |  | 100 µg/mL |
| CCCCCCCCCCCCCCCC(=O)NC1CC(O)C(O)NC(=O)C2C(O)C(C)CN2C(=O)C(C(O)CC(N)=O)NC(=O)C(C(O)Cc2ccc(O)c(OS(=O)(=O)O)c2)NC(=O)C2CC(O)CN2C(=O)C(C(C)O)NC1=O | FP578 |  |  | 0.008 µg/mL |
| Cc1nc2cc(Cl)c(Cl)cc2n1[C@@H]1O[C@H](CO)[C@@H](O)[C@H]1O | 52 strains |  |  | 2 µg/mL |
| CC1=C(Cl)C(O)=CC(=O)C12Oc1cc(O)c(Cl)c(C)c1C2=O | MTCC 227 |  |  | 500 µg/mL |
| CCC(C)n1ncn(-c2ccc(N3CCN(c4ccc(OC[C@H]5CO[C@](Cn6cncn6)(c6ccc(Cl)cc6Cl)O5)cc4)CC3)cc2)c1=O | ATCC 90028 |  |  | 0.0022 µg/mL |
| CN(C)CCCNCc1ccc(-c2csc(-c3ccc(Cl)cc3)n2)cc1 |  |  |  | 1 µg/mL |
| NC(=NCc1ccccc1)NCCCCCCCN1CCCCCCCCN=C(N)NC1=O | 15T |  |  | 5 µM |
| Cc1cccc(/C=C2/S/C(=N/NC(=O)c3sc(NC(=O)c4ccc(F)cc4)nc3C)N(c3ccccc3)C2=O)c1 | MTCC 227 |  |  | 250 µg/mL |
| C=C1C[C@H](N)[C@H](C(=O)O)C1 | 69 clinical isolates |  |  | 16 µg/mL |
| CS(=O)(=O)OC[C@H]1CO[C@](Cn2ccnc2)(c2ccc(-c3ccccc3)cc2)O1 | 44 strains |  |  | >256 µg/mL |
| CC(C)(N)CSCc1ccc(-c2csc(-c3ccc(Cl)cc3)n2)cc1 |  |  |  | 4 µg/mL |
| NC(N)=NCCCCCCCNCCCCCCCCCNC(N)=NCC1CC1 | 53T |  |  | 10 µM |
| O=C(OCC1COC(Cn2ccnc2)(c2ccc(-c3ccccc3)cc2)O1)c1ccccc1 | 44 strains |  |  | 16 µg/mL |
| Cc1nc(NC(=O)c2ccc(F)cc2)sc1C(=O)N/N=C1/S/C(=C/c2cccc(O)c2)C(=O)N1c1ccccc1 | MTCC 227 |  |  | 250 µg/mL |
| CC(C)=CCCNC(N)=NCCCCCCCCCNCCCCCCCN=C(N)N | 15T |  |  | 40 µM |
| C=C(C)C(O)Cc1c(O)ccc(C(=O)/C=C/c2ccc(O)cc2)c1O |  |  |  | 15 µg/mL |
| COc1ccccc1/C=C1/S/C(=N/NC(=O)c2sc(NC(=O)c3ccc(F)cc3)nc2C)N(c2ccccc2)C1=O | MTCC 227 |  |  | 250 µg/mL |

Repeating the final 5 entries:

structure	strain	read by	conditions	result
O=C(OCC1COC(Cn2ccnc2)(c2ccc(-c3ccccc3)cc2)O1)c1ccccc1	44 strains			16 µg/mL
Cc1nc(NC(=O)c2ccc(F)cc2)sc1C(=O)N/N=C1/S/C(=C/c2cccc(O)c2)C(=O)N1c1ccccc1	MTCC 227			250 µg/mL
CC(C)=CCCNC(N)=NCCCCCCCCCNCCCCCCCN=C(N)N	15T			40 µM
C=C(C)C(O)Cc1c(O)ccc(C(=O)/C=C/c2ccc(O)cc2)c1O				15 µg/mL
COc1ccccc1/C=C1/S/C(=N/NC(=O)c2sc(NC(=O)c3ccc(F)cc3)nc2C)N(c2ccccc2)C1=O	MTCC 227			250 µg/mL